Measured values from several laboratories, pooled; numbers as filed in NIAID ChemDB.

Common to all: tests in culture; species: HIV-1; cells: CEM + CEM-SS; read-out: EC50

Two numbers with a dash give a range or band.

CCCc1cc(=O)oc2c3c(c4c(c12)OC(C)(C)CC4)O[C@H](C)[C@@H](C)C3=O ; strain: IIIB ; method: cytopathic effect / XTT ; value: 1 µM
CC=CCOc1cc(NC(=S)c2ccoc2C)ccc1OC ; strain: 4xAZT(RT-D67N K70R T215Y K219Q) ; mutations: RT-D67N K70R T215Y K219Q ; method: cytopathic effect / XTT ; value: 0.03 µM
C[C@]12CCC3C(CC[C@H]4C[C@@H](CC=C(c5cc(Cl)c(O)c(C(=O)O)c5)c5cc(Cl)c(O)c(C(=O)O)c5)CC[C@]34C)C1CC[C@@H]2CC=C(c1cc(Cl)c(O)c(C(=O)O)c1)c1cc(Cl)c(O)c(C(=O)O)c1 ; strain: IIIB ; method: cytopathic effect / MTT ; value: 14 µM
C/C=C/CSc1cc(NC(=S)c2ccsc2C)ccc1Cl ; strain: NL4-3 ; mutations: RT-K103N ; method: p24 ; value: 4.8 µM
CN1N=C(N)c2cn([C@@H]3O[C@H](COP(=O)(O)O)[C@@H](O)[C@H]3O)c3ncnc1c23 ; strain: TP1 ; method: cytopathic effect / XTT ; value: 0.07 µM
CC1=C(C(=O)Nc2ccc(Cl)c(C(=O)OC(C)C)c2)SCCO1 ; strain: RF ; method: cytopathic effect / XTT ; value: 0.29 µM
c1ccc(CN2CCc3cncn3CC2)cc1 ; strain: LAI ; method: RT activity ; value: 165 µM
Cn1cc(NC(=O)c2cc(N)nn2C)cc1C(=O)Nc1ccc2cc(S(=O)(=O)O)cc(S(=O)(=O)O)c2c1 ; strain: RF ; method: cytopathic effect / XTT ; value: >200 µM
Cc1cc(C)nc(SC(F)(F)c2nc3ccccc3o2)n1 ; strain: RF ; method: cytopathic effect / XTT ; value: 2.16 µM
Cc1occc1C(=S)Nc1ccc(Cl)c(C(=O)OCC2CC2)c1 ; strain: NL4-3 ; mutations: RT-L100I ; method: cytopathic effect / XTT ; value: 1.1 µM
CN(C)C1=C(C#N)/C(=C2/C(C#N)=C(N(C)C)N(c3ccc([N+](=O)[O-])cc3)c3c2n(C)c2ccccc32)c2c(c3ccccc3n2C)N1c1ccc([N+](=O)[O-])cc1 ; strain: IIIB ; method: cytopathic effect / XTT ; value: 0.824–0.836 µM
Cn1cc(NC(=O)Nc2cc(C(=O)Nc3cc(C(=O)Nc4ccc(P(=O)(O)O)c5cc(P(=O)(O)O)ccc45)n(C)c3)n(C)c2)cc1C(=O)Nc1cc(C(=O)Nc2ccc(P(=O)(O)O)c3cc(P(=O)(O)O)ccc23)n(C)c1 ; strain: A17 ; method: cytopathic effect / XTT ; value: 1.3 µM
COc1c(Cl)cc(C(=CCCCCN[C@@H]2CC[C@]3(C)C4CC[C@@]5(C)C(CC[C@@H]5C(C)CCCC(C)C)C4CC[C@H]3C2)c2cc(Cl)c(OC)c(C(=O)O)c2)cc1C(=O)O ; strain: IIIB ; method: cytopathic effect / MTT ; value: >150 µM
C=CCO/N=C/c1cc(NC(=S)c2ccoc2C)ccc1Cl ; strain: IIIB ; method: cytopathic effect / XTT ; value: 0.09 µM
NCCCCCCCCCCCCNC(=O)Cc1cn([C@H]2C=C[C@@H](CO)O2)c(=O)[nH]c1=O ; strain: LAI ; method: cytopathic effect / MTT ; value: 2.3 µM
Cn1cc(NC(=O)Nc2cc(C(=O)Nc3cc(C(=O)Nc4cc(P(=O)(O)O)c5cccc(P(=O)(O)O)c5c4)n(C)c3)n(C)c2)cc1C(=O)Nc1cc(C(=O)Nc2cc(P(=O)(O)O)c3cccc(P(=O)(O)O)c3c2)n(C)c1 ; strain: RF ; method: cytopathic effect / XTT ; value: 6.6 µM
CC(C)=CCN1CCc2cncn2CC1 ; strain: LAI ; method: RT activity ; value: >100 µM
CCN(CC)c1cc(OCc2ccccc2)cc2c1[C@H]1COc3cc(OC)ccc3[C@H]1O2 ; strain: RF ; method: cytopathic effect / XTT ; value: >200 µM
NCCCCCCCCNC(=O)Cc1cn([C@H]2C=C[C@@H](CO)O2)c(=O)[nH]c1=O ; strain: IIIB ; method: cytopathic effect / MTT ; value: >100 µM
Cc1ccnc(SC(F)(F)c2nc3ccccc3o2)n1 ; strain: HEPT (RT P236L) ; mutations: RT-P236L ; method: cytopathic effect / XTT ; value: 0.11 µM
Cn1cc(N)cc1C(=O)Nc1cc(C(=O)Nc2cc(S(=O)(=O)O)c3cc(S(=O)(=O)O)cc(S(=O)(=O)O)c3c2)n(C)c1 ; strain: RF ; method: cytopathic effect / XTT ; value: 155.7 µM
COc1c(Cl)cc(C(=CCCCCN(C(=O)C=C(c2cc(Cl)c(OC)c(C(=O)O)c2)c2cc(Cl)c(OC)c(C(=O)O)c2)[C@H]2CC[C@]3(C)C4CC[C@@]5(C)C(CC[C@@H]5C(C)CCCC(C)C)C4CC[C@H]3C2)c2cc(Cl)c(OC)c(C(=O)O)c2)cc1C(=O)O ; strain: RF ; method: cytopathic effect / MTT ; value: 6.9 µM
COc1ccc2c(c1)OC[C@@H]1c3cc(O)c4c(OC)cccc4c3O[C@H]21 ; strain: RF ; method: cytopathic effect / XTT ; value: >15 µM
CCCCCCCCCCCCOCC(COP(=O)([O-])OCC[N+](C)(C)C)OCCCCCCCCCC ; method: plaque count / syncytia ; value: 0.32 µM
Cc1occc1C(=S)Nc1ccc(Cl)c(C(=O)OC(C)C)c1 ; strain: NL4-3 ; mutations: RT-L100I ; method: cytopathic effect / XTT ; value: 0.6 µM
FC(F)(Sc1ccccc1)c1nc2ccccc2o1 ; strain: RF ; method: cytopathic effect / XTT ; value: 36 µM
Cn1cc(NC(=O)Nc2cc(C(=O)Nc3cc(C(=O)Nc4ccc(S(=O)(=O)O)c5cc(S(=O)(=O)O)ccc45)n(C)c3)n(C)c2)cc1C(=O)Nc1cc(C(=O)Nc2ccc(S(=O)(=O)O)c3cc(S(=O)(=O)O)ccc23)n(C)c1 ; strain: RF ; method: cytopathic effect / XTT ; value: 12.3 µM
COC[C@H]1c2cc(O)c(OCc3ccccc3)cc2O[C@@H]1c1ccc(OC)cc1 ; strain: RF ; method: cytopathic effect / XTT ; value: >18.7 µM
CC(C)C(OC(=O)c1cc(NC(=S)c2cccn2C)ccc1Cl)C(C)C ; strain: RF ; method: cytopathic effect / XTT ; value: 0.13 µM
NCCCCCCCCCCCCNC(=O)Cc1cn([C@@H]2C=C[C@H](CO)O2)c(=O)[nH]c1=O ; strain: IIIB ; method: cytopathic effect / MTT ; value: >100 µM
COc1cc(-c2ccc(N=Nc3ccc4c(S(=O)(=O)O)cc(S(=O)(=O)O)c(N)c4c3O)c(OC)c2)ccc1N=Nc1ccc2c(S(=O)(=O)O)cc(S(=O)(=O)O)c(N)c2c1O ; strain: N119 ; method: cytopathic effect / XTT ; value: 0.5 µM
CCCCCCCCCCCCCCCCSC1CCCC(OP(=O)([O-])OCC[N+](C)(C)C)C1 ; method: plaque count / syncytia ; value: 0.42 µM
COc1c(Cl)cc(C(=CCCNC(=O)C[C@H]2CC[C@]3(C)C4CC[C@@]5(C)C(CC[C@@H]5CC(=O)NCCC=C(c5cc(Cl)c(OC)c(C(=O)O)c5)c5cc(Cl)c(OC)c(C(=O)O)c5)C4CC[C@H]3C2)c2cc(Cl)c(OC)c(C(=O)O)c2)cc1C(=O)O ; strain: IIIB ; method: cytopathic effect / MTT ; value: 47 µM
COc1cc(-c2ccc(N=Nc3ccc4c(S(=O)(=O)O)cc(S(=O)(=O)O)c(N)c4c3O)c(OC)c2)ccc1N=Nc1ccc2c(S(=O)(=O)O)cc(S(=O)(=O)O)c(N)c2c1O ; strain: G ; method: RT activity ; value: 1.9 µM
COc1ccc2c(c1)OC[C@@H]1c3cc(O)c(OC)cc3O[C@H]21 ; strain: RF ; method: cytopathic effect / XTT ; value: >1.75 µM
CCCc1cc(=O)oc2c3c(c4c(c12)OC(C)(C)CC4)O[C@@H](C)[C@H](C)[C@@H]3O ; strain: NL4-3 ; method: cytopathic effect / XTT ; value: 0.5 µM
Cc1cn([C@H]2C=C[C@@H](CO)O2)c(=O)[nH]c1=O ; strain: IIIB ; method: cytopathic effect / MTT ; value: 0.2 µM
[O-][n+]1onc2ncnc(N3CC[N+]4(CC3)CC[N+]3(CCN(c5ncnc6no[n+]([O-])c56)CC3)CC4)c21 ; strain: RF ; method: cytopathic effect / XTT ; value: 150 µM

The last 3 rows once more:

structure	strain	mutations	method	value
CCCc1cc(=O)oc2c3c(c4c(c12)OC(C)(C)CC4)O[C@@H](C)[C@H](C)[C@@H]3O	NL4-3	-	cytopathic effect / XTT	0.5 µM
Cc1cn([C@H]2C=C[C@@H](CO)O2)c(=O)[nH]c1=O	IIIB	-	cytopathic effect / MTT	0.2 µM
[O-][n+]1onc2ncnc(N3CC[N+]4(CC3)CC[N+]3(CCN(c5ncnc6no[n+]([O-])c56)CC3)CC4)c21	RF	-	cytopathic effect / XTT	150 µM

An empty or dashed field is not shown. Neighbouring rows are from separate reports. ECn is the concentration giving n% inhibition of infection, replication or growth.